The source of these data is patent US9822115B2, “Nitrogen containing compounds and their use as antibacterial agents” (WOCKHARDT LIMITED, priority 2014, dated 2017).

Sequences of proteins named here, by UniProt entry; tags and fusion partners are left off. Residues count along the entry.
UniProt P0AD64, 22-286 R39S/G234A/E235K: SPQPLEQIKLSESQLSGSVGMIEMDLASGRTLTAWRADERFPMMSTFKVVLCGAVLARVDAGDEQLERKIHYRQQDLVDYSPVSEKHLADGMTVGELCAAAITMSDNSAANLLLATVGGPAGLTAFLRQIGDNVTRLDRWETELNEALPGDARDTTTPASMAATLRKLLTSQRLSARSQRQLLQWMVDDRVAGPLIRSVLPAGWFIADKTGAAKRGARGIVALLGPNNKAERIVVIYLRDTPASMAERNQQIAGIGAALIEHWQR

pIC50: −log10 of the molar value. Read-outs that look alike come from different tables or passages of the source.

The test has as its target T1, Class A beta-lactamase, K. pneumoniae ATCC 700603 (SHV 18) (Klebsiella pneumoniae, UniProt P0AD64, E235K/G234A/R39S).
T1 construct: preincubated mixture of crude enzyme and the agents; endogenous in cells; host or cells: K. pneumoniae ATCC 700603
The test is described as follows: biochemical. It is filed as biochemical. On the procedure: Determination of enzyme inhibition activity: Concentration of the inhibitor required to inhibit 50% of enzymatic activity was measured by adding a chromogenic substrate, Nitrocefin (100 uM, 5 min) to the preincubated mixture of crude enzyme and the agents (37° C., 10 min). Absorbance was measured at 485 nm by UV-spectrophotometer. The IC50 was calculated by plotting absorbance against concentration through Sigmoidal dose response curve using Graph Pad software.
The enzyme inhibition was expressed as IC50.

Where [1] appears, read: Class A K. pneumoniae ATCC 700603 (SHV 18), read-out: Beta-lactamase enzyme inhibition IC50.

As usually defined, the pIC50 is the negative decadic logarithm of the IC50, by convention in mol/L.

For the compound `Nc1ccc(CC(=O)NNC(=O)[C@@H]2CC[C@@H]3CN2C(=O)N3OS(=O)(=O)O)c(F)c1` [Example 17, (2S,5R)-sulfuric acid mono-[2-(N′-(4-amino-2-fluorophenyl-acetyl)-hydrazinocarbonyl)-7-oxo-1,6-diaza-bicyclo[3.2.1]oct-6-yl]ester], the pIC50 was 7.74. Turning to “sodium salt of (2S,5R)-succinic acid tert-butyl ester 4-{2-oxo-2-[N′-(7-oxo-6-sulphooxy-1,6-diaza-bicyclo[3.2.1]octane-2-carbonyl)-hydrazino]ethyl}-phenyl ester [Example 27]”, the pIC50 under setting [1] was 7.74. For the compound “sodium salt of (2S,5R)-sulfuric acid mono-[2-(N′-(3,3-diphenyl-propionyl)-hydrazinocarbonyl)-7-oxo-1,6-diaza-bicyclo[3.2.1]oct-6-yl]ester [Example 7]”, the pIC50 under setting [1] is 7.15.
